{
  "source": "patent EP0341019A2",
  "about": "“Polyether antibiotic” (priority 1988, dated 1989)",
  "test_system": "Staphylococcus aureus S13E",
  "experiment": "microbe, parasite or virus in culture",
  "data": [
    {"smiles": "CC[C@@H](O)[C@]1(C)C[C@H](C)[C@@](O)([C@H]2C[C@H](C)[C@H]([C@]3(C)C[C@@H](O[C@H]4CC[C@H](OC)[C@@H](C)O4)[C@H]([C@]4(C)CC[C@@]5(O[C@H]([C@@H](C)[C@@H](OC)[C@H](C)C(=O)O)[C@H](C)[C@@H](OC)[C@H]5C)O4)O3)O2)O1", "note": "[Example A82810]", "values": [
      {"measurement": "MIC", "result": 1, "unit": "µg/mL"}
    ]}
  ]
}
